Source: patent US20220251151A1, “Kv1.3 blockers” (published 2022)
Changes are numbered by the printed parent chain.

T1: Kv1.3 ion channel (rat, endogenous on T cells in rat whole blood) (rat), P15384
T1 chain: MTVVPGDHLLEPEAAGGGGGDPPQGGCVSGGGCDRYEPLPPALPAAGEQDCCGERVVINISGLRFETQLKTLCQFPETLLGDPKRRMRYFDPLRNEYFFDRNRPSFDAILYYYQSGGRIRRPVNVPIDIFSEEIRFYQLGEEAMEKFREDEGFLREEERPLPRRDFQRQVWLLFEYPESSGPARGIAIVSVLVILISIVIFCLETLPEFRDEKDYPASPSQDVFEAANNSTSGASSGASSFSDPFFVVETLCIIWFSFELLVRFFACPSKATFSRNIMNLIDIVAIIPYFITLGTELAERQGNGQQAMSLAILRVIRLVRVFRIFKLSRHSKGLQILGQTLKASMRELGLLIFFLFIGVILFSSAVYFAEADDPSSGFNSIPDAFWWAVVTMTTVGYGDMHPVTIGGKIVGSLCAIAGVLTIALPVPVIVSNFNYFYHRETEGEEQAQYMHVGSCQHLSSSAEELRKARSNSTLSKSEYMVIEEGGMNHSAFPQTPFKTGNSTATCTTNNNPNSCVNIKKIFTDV

B1: Compound 1 (PaT1) (peptide)
peptide: QMDMRCSASVECKQKCLKAIGSIFGKCMNKKCKCYPR
modifications: not checked
B2: Compound 10 (peptide)
peptide: B1 peptide with Q1N, L17K, K18D
modifications: not checked
B3: Compound 11 (peptide)
peptide: GGNMDMRCSASVECKQKCLKAIGSIFGKCMNKKCKCYPR
modifications: not checked
B4: Compound 116 (peptide)
peptide: LRCSASVECKQKCLAAIGSIFGKCMNKKCKCYPR
modifications: not checked
B5: Compound 117 (peptide)
peptide: CSASVECKQKCLKAIGSIFGKCMNKKCKCYPR
modifications: not checked
B6: Compound 12 (peptide)
peptide: B1 peptide with Q1N, D3E
modifications: not checked
B7: Compound 13 (peptide)
peptide: B3 peptide with G1S
modifications: not checked
B8: Compound 5 (peptide)
peptide: MDMRCSASVECKQKCLKAIGSIFGKCMNKKCKCYPR
modifications: not checked
B9: Compound 8 (peptide)
peptide: B1 peptide with Q1N, M2I
modifications: not checked
B10: Compound 18 (peptide)
peptide: B1 peptide with Q1N, K15L
modifications: not checked
B11: Compound 22 (peptide)
peptide: B1 peptide with Q1N, G21E
modifications: not checked
B12: Compound 24 (peptide)
peptide: NMDMRCSASVECKQKCLKAIGSIFGKCMNKKCKCYPRHRRK
modifications: not checked
B13: Compound 29 (peptide)
peptide: B1 peptide with Q1N, K13L
modifications: not checked
B14: Compound 30 (peptide)
peptide: B1 peptide with Q1N, K13A
modifications: not checked
B15: Compound 31 (peptide)
peptide: B1 peptide with Q1N, Q14E
modifications: not checked
B16: Compound 32 (peptide)
peptide: B1 peptide with Q1N, Q14L
modifications: not checked
B17: Compound 36 (peptide)
peptide: B1 peptide with Q1N, K30G
modifications: not checked
B18: Compound 37 (peptide)
peptide: B1 peptide with Q1N, K33H
modifications: not checked
B19: Compound 33 (peptide)
peptide: B1 peptide with Q1N, G21H
modifications: not checked
B20: Compound 38 (peptide)
peptide: B1 peptide with Q1N, K33V
modifications: not checked
B21: Compound 50 (peptide)
peptide: B1 peptide with Q1N, L17Y
modifications: not checked
B22: Compound 51 (peptide)
peptide: B1 peptide with Q1N, L17R
modifications: not checked
B23: Compound 53 (peptide)
peptide: B1 peptide with Q1N, K18Y
modifications: not checked
B24: Compound 4 (peptide)
peptide: B1 peptide with Q1N, S22R, I23G
modifications: not checked
B25: Compound 55 (peptide)
peptide: B1 peptide with Q1N, A19Y
modifications: not checked
B26: Compound 58 (peptide)
peptide: B1 peptide with Q1N, I20Y
modifications: not checked
B27: Compound 54 (peptide)
peptide: NMDMRCSASVECKQKCLAIGSIFGKCMNKKCKCYPR
modifications: not checked
B28: Compound 57 (peptide)
peptide: B27 peptide with A18K
modifications: not checked
B29: Compound 59 (peptide)
peptide: B1 peptide with Q1N, I20E
modifications: not checked
B30: Compound 6 (peptide)
peptide: DMRCSASVECKQKCLKAIGSIFGKCMNKKCKCYPR
modifications: not checked
B31: Compound 60 (peptide)
peptide: B1 peptide with Q1N, I20R
modifications: not checked
B32: Compound 1 (peptide)
peptide: B1 peptide
modifications: not checked
B33: Compound 61 (peptide)
peptide: B27 peptide with A18K, I19A
modifications: not checked
B34: Compound 7 (peptide)
peptide: B1 peptide with Q1N
modifications: not checked
B35: Compound 9 (peptide)
peptide: B1 peptide with Q1N, M4V
modifications: not checked

Assays:
Experiment in all cases: cell-based or functional assay
[1] = target: human Kv1.3 voltage-gated K+ channel (human), P22001
[2] = target: T1, Kv1.3 ion channel (rat, endogenous on T …)
[3] = target: human Kv1.3 potassium channel (potassium voltage-gated channel subfamily A member 3, α-subunit) (human), P22001

Binder | IC50 (thallium flux, FLIPR) [1] [nM] | IC50 (IL-17A release, thapsigargin-stimulated rat whole blood) [2] [nM] | Potency IC50 (patch clamp) [3] [nM]
B1 | 0.24 | – | –
B2 | 0.57 | – | –
B3 | 0.3 | – | –
B4 | 0.18 | 0.36 | –
B5 | 1.5 | 1.9 | 2.09
B6 | 0.23 | – | 0.11
B7 | 0.26 | – | –
B8 | 0.25 | – | 0.38
B9 | 0.47 | – | 0.44
B10 | 0.19 | 3.2 | 0.24
B11 | 0.11 | 2.8 | 0.29
B12 | 0.073 | – | –
B13 | 0.18 | 0.76 | 0.4
B14 | 0.09 | 0.41 | 0.14
B15 | 0.075 | 0.86 | 0.28
B16 | 0.12 | 0.75 | 0.38
B17 | 0.24 | 1.2 | 0.31
B18 | 0.14 | 0.77 | 0.19

Binder | IC50 (thallium flux, FLIPR) [1] [nM] | IC50 (IL-17A release, thapsigargin-stimulated rat whole blood) [2] [nM] | Potency IC50 (patch clamp) [3] [nM]
B19 | 0.14 | 0.7 | –
B20 | 0.46 | 2.8 | –
B21 | 0.16 | – | 0.27
B22 | 0.11 | – | 0.25
B23 | 0.12 | – | 0.29
B24 | 0.29 | – | –
B25 | 0.12 | – | 0.12
B26 | 0.11 | – | 0.34
B27 | 0.46 | – | –
B28 | 0.11 | – | –
B29 | 0.035 | – | –
B30 | 0.34 | – | –
B31 | 0.035 | – | –
B32 | – | 0.17 | –
B33 | 0.4 | – | –
B34 | 0.12 | – | –
B35 | 0.53 | – | –
